Anti-infective test results gathered from many reports (values: NIAID ChemDB through PubChem).

Shared fields: target-level tests; species: HIV-1; protein: Protease; read-out: IC50

Two numbers with a dash give a range or band.

SMILES | strain | read by | setting | value
NC(=O)C[C@H](NC(=O)OCc1ccccc1)C(=O)N[C@@H](Cc1ccccc1)[C@H](O)C(=O)N1CCC[C@H]1C(=O)NC1CCCCC1 |  | HPLC |  | 0.32 µM
Cc1c(O)cccc1C(=O)N[C@@H](Cc1ccccc1)[C@H](O)C(=O)N1CSC(C)(C)[C@H]1C(=O)NN(C)c1ccccc1 |  | HPLC |  | >0.05 µM
Cc1cccc(N2CCN(Cc3cn([C@@H](Cc4ccccc4)[C@H](Cc4ccccc4)NC(=O)OC4CCCC4)nn3)CC2)c1 |  | fluorescence |  | <5 µM
CC(C)[C@H](NC(=O)OCc1ccccc1)C(=O)N[C@@H](Cc1ccccc1)[C@H](O)CNC[C@@H](O)[C@H](Cc1ccccc1)NC(=O)OC(C)(C)C |  | HPLC | pH 5.5 | <10 µM
CC(C)c1ccccc1SC1=C(O)CC(CCCC(=O)NCCc2ccccc2)(c2ccccc2)OC1=O |  | HPLC | pH 4.7 | 0.146 µM
CC(=O)N[C@H](C(=O)N[C@H](C(=O)NC(Cc1ccccc1)C(O)C(O)C(Cc1ccccc1)NCc1ccccc1)C(C)C)C(C)C |  | fluorescence |  | <270 µM
O=C(O)CCCCCCCCCCCCC(=O)O |  | fluorescence |  | >1000 µM
CC(C)(C)NC(=O)[C@@H]1CCCN1C(=O)[C@@H](O)[C@H](Cc1ccccc1)NC(=O)[C@H](CC(N)=O)NC(=O)OCc1ccccc1 |  | HPLC |  | 3 µM
CSC[C@H](NC(=O)COc1cccc2ccccc12)C(=O)N[C@@H](Cc1ccccc1)[C@H](O)C(=O)N1CSC[C@H]1C(=O)NC(C)(C)C |  |  |  | 0.0032 µM
O=c1c(O)c(-c2ccccc2)oc2cc(O)cc(O)c12 | SF2 | HPLC / fluorescence |  | 520 µM
Cc1c(O)cccc1C(=O)N[C@@H](Cc1ccccc1)[C@H](O)C(=O)N1CSC(C)(C)[C@H]1C(=O)NCc1ccncc1 |  | HPLC |  | >0.05 µM
O=C(O)c1cc(=O)c2ccc(O)cc2o1 | SF2 | HPLC / fluorescence |  | 285 µM
O=C(N[C@@H](Cc1ccccc1)[C@H](Cc1ccccc1)n1cc(CN2CCN(c3ccccn3)CC2)nn1)OC1CCCC1 |  | fluorescence |  | >5 µM
O=C(O)CCCCCCCCCC(=O)O |  | fluorescence |  | >1000 µM
COC(=O)[C@]12CCC(C)(C)C[C@H]1C1=CC[C@@H]3[C@@]4(C)CC[C@H](OC(=O)CCCCC(=O)OC[C@H]5O[C@@H](n6cc(C)c(=O)[nH]c6=O)C[C@@H]5N=[N+]=[N-])C(C)(C)[C@@H]4CC[C@@]3(C)[C@]1(C)CC2 |  | HPLC |  | 4 µM
CC(C)[C@H](NC(=O)OCc1ccccc1)C(=O)N[C@@H](CSc1ncccn1)[C@@H](O)[C@H](O)[C@H](CSc1ncccn1)NC(=O)[C@@H](NC(=O)OCc1ccccc1)C(C)C |  | fluorescence |  | <0.1 µM
O=C1c2c(O)cccc2Cc2cccc(O)c21 |  | fluorescence |  | 42 µM
CC(C)c1ccccc1SC1=C(O)CC(CCCC(=O)N(C)CCc2ccccc2)(c2ccccc2)OC1=O |  | HPLC | pH 4.7 | 0.216 µM
CC(C)(C)NC(=O)C1N(C(=O)[C@@H](O)[C@H](Cc2ccccc2)NC(=O)[C@H](CS(C)(=O)=O)NC(=O)COc2cccc3ccccc23)CSC1(C)C |  |  |  | 0.0026 µM
CCN(CC)c1ccc2cc3ccc(=[N+](CC)CC)cc-3oc2c1.CCN(CC)c1ccc2cc3ccc(=[N+](CC)CC)cc-3oc2c1.[Cl-].[Cl-].[Cl-].[Cl-].[Cl][Fe+][Cl].[Cl][Fe+][Cl] |  | fluorescence |  | 17 µM
Cc1ccc(C)c(N2CCN(Cc3cn([C@@H](Cc4ccccc4)[C@H](Cc4ccccc4)NC(=O)OC4CCCC4)nn3)CC2)c1 |  | fluorescence |  | <5 µM
COc1ccc(CS(=O)(=O)C[C@@H](NC(C)=O)C(=O)N[C@@H](Cc2ccccc2)[C@H](O)C(=O)N2CSC(C)(C)[C@H]2C(=O)NCc2ccccc2C)cc1 |  |  |  | <0.001 µM
CSC[C@H](NC(=O)COc1cccc2ccccc12)C(=O)N[C@@H](Cc1ccccc1)[C@H](O)C(=O)N1CSC[C@H]1C(=O)NC(C)(C)C |  | HPLC |  | 0.012 µM
CC(C)[C@H](NC(=O)NCc1ccccn1)C(=O)N[C@@H](Cc1ccccc1)C(O)[C@H](Cc1ccccc1)NC(=O)[C@@H](NC(=O)NCc1ccccn1)C(C)C |  | fluorescence |  | >0.001 µM
CC(C)c1ccccc1SC1=C(O)CC(CCCCC(=O)N2CCOCC2)(c2ccccc2)OC1=O |  | HPLC | pH 4.7 | 0.195 µM
O=C1C=CC(=O)c2c(O)ccc(O)c21 |  | fluorescence |  | >100 µM
CN(C(=O)OC(C)(C)C)[C@@H](Cc1ccccc1)[C@H](O)CNC[C@@H](O)[C@H](Cc1ccccc1)NC(=O)OC(C)(C)C |  | HPLC | pH 5.5 | 10 µM
CC(C)(C)NC(=O)[C@H]1N(C(=O)[C@@H](O)[C@H](Cc2ccccc2)NC(=O)[C@H](CC(N)=O)NC(=O)COc2cccc(Nc3ccccc3)c2)CSC1(C)C |  | HPLC |  | 0.003 µM
C[C@H]1[C@H](C)CC[C@]2(C(=O)O)CC[C@]3(C)C(=CC[C@@H]4[C@@]5(C)CC[C@H](O)C(C)(C)[C@@H]5CC[C@]43C)[C@H]12 |  | HPLC |  | 8 µM
CC(C)c1ccccc1SC1=C(O)CC(CCCC(=O)N2CCOCC2)(c2ccccc2)OC1=O |  | HPLC | pH 4.7 | 0.186 µM
CC(C)(C)N[C@@H](Cc1ccccc1)C(=O)N[C@@H](Cc1ccccc1)[C@H](O)CNC[C@@H](O)[C@H](Cc1ccccc1)NC(=O)[C@H](Cc1ccccc1)NC(C)(C)C |  | HPLC | pH 5.5 | >10 µM
CC(C)(C)NC(=O)[C@H]1N(C(=O)[C@@H](O)[C@H](Cc2ccccc2)NC(=O)[C@H](CC(N)=O)NC(=O)COc2cccc3cnccc23)CSC1(C)C |  | HPLC |  | 0.0022 µM
CC(C)c1ccccc1SC1=C(O)CC(CCCC(=O)N2CCNCC2)(c2ccccc2)OC1=O |  | HPLC | pH 4.7 | 0.564 µM
O=C1c2cccc(O)c2C(=O)c2c(O)cccc21 |  | fluorescence |  | 110 µM
COc1ccccc1CNC(=O)[C@H]1N(C(=O)[C@@H](O)[C@H](Cc2ccccc2)NC(=O)COc2c(C)cccc2C)CSC1(C)C |  | HPLC |  | >0.05 µM
CSC[C@H](NC(=O)COc1cccc2cnccc12)C(=O)N[C@@H](Cc1ccccc1)[C@H](O)C(=O)N1CSC(C)(C)[C@H]1C(=O)NC(C)(C)C |  |  |  | 0.0023 µM
CC(C)(C)NC(=O)[C@@H]1CCCN1C(=O)[C@@H](O)[C@H](Cc1ccccc1)NC(=O)[C@H](CC(N)=O)NC(=O)COc1cccc2ccccc12 |  | HPLC |  | 0.0032–0.0123 µM
CC(C)(C)OC(=O)N[C@@H](Cc1ccccc1)[C@H](O)CNC[C@@H](O)[C@H](Cc1cccc(O)c1)NC(=O)OC(C)(C)C |  | HPLC | pH 5.5 | <10 µM
O=C(O)CCCCCC(=O)CCCCCCCCC(=O)CCCCCC(=O)O |  | fluorescence |  | 200 µM
CCC(C)[C@H](NC(=O)CCCCCCCCCCCCCCC(=O)N[C@@H](CC(N)=O)C(=O)N[C@@H](Cc1ccc(O)cc1)C(=O)O)C(=O)N[C@@H](Cc1ccccc1)C(N)=O |  | HPLC |  | >1 µM
O=C(O)CCCCCCCCCCCCCCCCCCCCC(=O)O |  | fluorescence |  | 12 µM
CC(C)[C@H](NC(=O)OCc1ccccc1)C(=O)NC(Cc1ccccc1)C(O)C(Cc1ccccc1)NC(=O)[C@@H](NC(=O)OCc1ccccc1)C(C)C |  | fluorescence |  | <0.01 µM
O=c1c(O)c(-c2ccccc2O)oc2ccccc12 | SF2 | HPLC / fluorescence |  | 12 µM
CC(C)c1ccccc1SC1=C(O)CC(CCCCC(=O)N2CCNCC2)(c2ccccc2)OC1=O |  | HPLC | pH 4.7 | 0.234 µM
CC1(C)CC[C@]2(C)CC[C@]3(C)C(=CC[C@@H]4[C@@]5(C)CC[C@H](O)C(C)(C)[C@@H]5CC[C@]43C)[C@@H]2C1 |  | HPLC |  | >100 µM
CC(C)(C)OC(=O)[C@@H]1CCCN1C(=O)[C@@H](O)[C@H](Cc1ccccc1)NC(=O)[C@H](CC(N)=O)NC(=O)OCc1ccccc1 |  | HPLC |  | 10 µM
Cc1c(O)cccc1C(=O)N[C@@H](Cc1ccccc1)[C@H](O)C(=O)N1CSC(C)(C)[C@H]1C(=O)NCc1ccc2c(c1)OCO2 |  | HPLC |  | <0.05 µM
CC(C)(NC(=O)CCCCCCCCCCCCCCC(=O)N[C@@H](CC(N)=O)C(=O)N[C@@H](Cc1ccccc1)C(=O)O)C(=O)N[C@@H](Cc1ccccc1)C(N)=O |  | HPLC |  | >1 µM
COC(=O)N[C@@H](Cc1ccccc1)[C@H](Cc1ccccc1)n1cc(CN2CCN(c3cc(Cl)ccc3C)CC2)nn1 |  | fluorescence |  | >5 µM
NC(=O)C[C@H](NC(=O)OCc1ccccc1)C(=O)N[C@@H](Cc1ccccc1)[C@H](O)C(=O)N1CCC[C@H]1C(=O)NC1CCCCC1 |  |  |  | 0.572 µM
CC(C)c1ccccc1SC1=C(O)CC(CCCCC(=O)N2CCN(C(=O)OC(C)(C)C)CC2)(c2ccccc2)OC1=O |  | HPLC | pH 4.7 | 0.127 µM
COC(=O)CCCC(=O)O[C@H]1CC[C@@]2(C)C(CC[C@]3(C)C2CC=C2C4CC(C)(C)CC[C@]4(C(=O)OC)CC[C@]23C)C1(C)C |  | HPLC |  | >50 µM
O=C1c2ccccc2C(=O)c2c(Nc3ccc(S(=O)(=O)[O-])cc3)cc(Nc3ccc(S(=O)(=O)[O-])cc3)cc21.[Na+].[Na+] |  | fluorescence |  | 3 µM
O=c1cc(-c2ccccc2)oc2cc(O)cc(O)c12 | SF2 | HPLC / fluorescence |  | 125 µM
CCC(C)[C@H](NC(=O)CCCCCCCCCCCCCCC(=O)N[C@@H](CC(N)=O)C(=O)N[C@@H](Cc1ccccc1)C(=O)O)C(=O)N[C@@H](Cc1ccc(-c2ccccc2)cc1)C(N)=O |  | HPLC |  | 0.545 µM
Cc1cccc(C)c1OCC(=O)N[C@@H](Cc1ccccc1)[C@H](O)C(=O)N1CSC(C)(C)[C@H]1C(=O)NCc1ccccc1 |  | HPLC |  | <0.05 µM
CC(C)(C)NC(=O)[C@@H]1CCCN1C(=O)[C@H](O)[C@H](Cc1ccccc1)NC(=O)[C@H](CC(N)=O)NC(=O)OCc1ccccc1 |  | HPLC |  | >0.089 µM

A second listing of 8 rows from above:

SMILES	strain	read by	setting	value
CC(C)(C)OC(=O)N[C@@H](Cc1ccccc1)[C@H](O)CNC[C@@H](O)[C@H](Cc1cccc(O)c1)NC(=O)OC(C)(C)C		HPLC	pH 5.5	<10 µM
O=C1c2c(O)cccc2Cc2cccc(O)c21		fluorescence		42 µM
CC1(C)CC[C@]2(C)CC[C@]3(C)C(=CC[C@@H]4[C@@]5(C)CC[C@H](O)C(C)(C)[C@@H]5CC[C@]43C)[C@@H]2C1		HPLC		>100 µM
CC(C)[C@H](NC(=O)OCc1ccccc1)C(=O)N[C@@H](CSc1ncccn1)[C@@H](O)[C@H](O)[C@H](CSc1ncccn1)NC(=O)[C@@H](NC(=O)OCc1ccccc1)C(C)C		fluorescence		<0.1 µM
Cc1ccc(C)c(N2CCN(Cc3cn([C@@H](Cc4ccccc4)[C@H](Cc4ccccc4)NC(=O)OC4CCCC4)nn3)CC2)c1		fluorescence		<5 µM
CCC(C)[C@H](NC(=O)CCCCCCCCCCCCCCC(=O)N[C@@H](CC(N)=O)C(=O)N[C@@H](Cc1ccccc1)C(=O)O)C(=O)N[C@@H](Cc1ccc(-c2ccccc2)cc1)C(N)=O		HPLC		0.545 µM
O=C(N[C@@H](Cc1ccccc1)[C@H](Cc1ccccc1)n1cc(CN2CCN(c3ccccn3)CC2)nn1)OC1CCCC1		fluorescence		>5 µM
Cc1cccc(N2CCN(Cc3cn([C@@H](Cc4ccccc4)[C@H](Cc4ccccc4)NC(=O)OC4CCCC4)nn3)CC2)c1		fluorescence		<5 µM

ICn: concentration for n% inhibition. Lines come from different laboratories, so protocols vary. Blank or dashed fields: not listed here.